# Test results: PMC5382265, “Macrocycle peptides delineate locked-open inhibition mechanism for microorganism phosphoglycerate mutases” (Nature Communications, 2017)
# The chains behind the UniProt entries cited, without tags or fusion partners. Where a name states a change or a piece, a line headed by the entry shows the natural chain unless it says otherwise.
# UniProt I6LDA6: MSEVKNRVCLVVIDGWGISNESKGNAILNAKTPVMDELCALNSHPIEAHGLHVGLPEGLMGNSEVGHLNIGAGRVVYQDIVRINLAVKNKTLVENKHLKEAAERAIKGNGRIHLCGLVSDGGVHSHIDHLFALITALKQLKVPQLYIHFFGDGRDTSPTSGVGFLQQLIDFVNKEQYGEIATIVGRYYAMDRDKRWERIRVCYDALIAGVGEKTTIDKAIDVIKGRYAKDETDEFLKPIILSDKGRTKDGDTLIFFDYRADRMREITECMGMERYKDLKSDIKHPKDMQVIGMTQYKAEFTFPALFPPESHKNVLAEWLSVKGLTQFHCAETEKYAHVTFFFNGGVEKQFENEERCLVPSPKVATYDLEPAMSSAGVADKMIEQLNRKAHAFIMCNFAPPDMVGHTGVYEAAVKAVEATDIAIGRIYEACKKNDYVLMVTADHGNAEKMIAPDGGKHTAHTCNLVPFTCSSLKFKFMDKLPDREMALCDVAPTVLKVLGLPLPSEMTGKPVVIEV
# Biological target: D. immitis iPGM (Dirofilaria immitis, UniProt F4ZE01)
# Assay: PGM enzyme-coupled bioluminescent end point assay (Kinase-Glo Plus)
# Conditions: Table 1; enzyme 10 nM; NA = no appreciable inhibitory activity
row,SMILES,"pIC50, apparent D. immitis iPGM"
1,CC[C@H](C)[C@@H]1NC(=O)[C@H](CCC(=O)O)NC(=O)[C@@H]2CCCN2C(=O)[C@H](C)NC(=O)[C@H](CC(N)=O)NC(=O)[C@@H]2CCCN2C(=O)[C@H](Cc2c[nH]c3ccccc23)NC(=O)[C@H](CO)NC(=O)[C@@H](Cc2ccc(O)cc2)NC(=O)CSC[C@@H](C(=O)N[C@@H](CS)C(=O)NCC(N)=O)NC(=O)[C@H](CCCCN)NC(=O)[C@H](Cc2c[nH]c3ccccc23)NC1=O [Bm-1],5.99
2,CC(C)C[C@@H]1NC(=O)[C@@H](Cc2ccc(O)cc2)NC(=O)CSC[C@@H](C(=O)N[C@@H](CC(N)=O)C(=O)N[C@H](C(=O)N[C@@H](CS)C(=O)NCC(N)=O)[C@@H](C)O)NC(=O)[C@H](CC(N)=O)NC(=O)[C@@H]2CCCN2C(=O)[C@H](Cc2c[nH]c3ccccc23)NC(=O)[C@H](CCC(=O)O)NC1=O [Bm-4],6.21
3,CC(C)C[C@@H]1NC(=O)[C@@H](Cc2ccc(O)cc2)NC(=O)CSC[C@@H](C(=O)N[C@@H](CO)C(=O)N[C@H](C(=O)N[C@@H](CS)C(=O)NCC(N)=O)[C@@H](C)O)NC(=O)[C@H](CC(N)=O)NC(=O)[C@@H]2CCCN2C(=O)[C@H](Cc2c[nH]c3ccccc23)NC(=O)[C@H](CC(=O)O)NC1=O [Bm-5],6.10
4,C[C@@H](O)[C@H](NC(=O)[C@H](CO)NC(=O)[C@@H]1CSCC(=O)N[C@H](Cc2ccc(O)cc2)C(=O)N2CCC[C@H]2C(=O)N[C@@H](CCC(=O)O)C(=O)N[C@@H](Cc2c[nH]c3ccccc23)C(=O)N2CCC[C@H]2C(=O)N[C@@H](CC(N)=O)C(=O)N1)C(=O)N[C@@H](CS)C(=O)NCC(N)=O [Bm-6],6.26
5,CC(C)[C@@H]1NC(=O)[C@H](C)NC(=O)[C@@H](Cc2ccc(O)cc2)NC(=O)CSC[C@@H](C(=O)N[C@@H](CCCNC(=N)N)C(=O)N[C@H](C(=O)N[C@@H](CS)C(=O)NCC(N)=O)[C@@H](C)O)NC(=O)[C@H](CC(N)=O)NC(=O)[C@@H]2CCCN2C(=O)[C@H](Cc2c[nH]c3ccccc23)NC1=O [Bm-7],5.42
6,CC(C)C[C@H](NC(=O)[C@H](Cc1ccc(O)cc1)NC(=O)[C@@H]1CSCC(=O)N[C@H](Cc2ccc(O)cc2)C(=O)N[C@@H](CC(=O)O)C(=O)N[C@@H](Cc2ccc(O)cc2)C(=O)N2CCC[C@H]2C(=O)NCC(=O)N[C@@H](CC(=O)O)C(=O)N[C@@H](Cc2c[nH]cn2)C(=O)N1)C(=O)N[C@@H](Cc1ccc(O)cc1)C(=O)NCC(=O)N[C@H](C(=O)N[C@@H](CS)C(=O)NCC(N)=O)[C@@H](C)O [Ce-1],8.04
7,CC(C)C[C@H](NC(=O)[C@H](Cc1ccc(O)cc1)NC(=O)[C@@H]1CSCC(=O)N[C@H](Cc2ccc(O)cc2)C(=O)N[C@@H](CC(=O)O)C(=O)N[C@@H](Cc2ccc(O)cc2)C(=O)N2CCC[C@H]2C(=O)NCC(=O)N[C@@H](CC(=O)O)C(=O)N[C@@H](Cc2ccc(O)cc2)C(=O)N1)C(=O)N[C@@H](Cc1ccc(O)cc1)C(=O)NCC(=O)N[C@H](C(=O)N[C@@H](CS)C(=O)NCC(N)=O)[C@@H](C)O [Ce-2],8.21

# Same assay, conditions: Table 2; PGM concentration as in Table 1 (10 nM); † estimated from incomplete curves
row,SMILES,pIC50 D. immitis iPGM
1,CC(C)C[C@H](NC(=O)[C@H](Cc1ccc(O)cc1)NC(=O)[C@@H]1CSCC(=O)N[C@H](Cc2ccc(O)cc2)C(=O)N[C@@H](CC(=O)O)C(=O)N[C@@H](Cc2ccc(O)cc2)C(=O)N2CCC[C@H]2C(=O)NCC(=O)N[C@@H](CC(=O)O)C(=O)N[C@@H](Cc2ccc(O)cc2)C(=O)N1)C(=O)N[C@@H](Cc1ccc(O)cc1)C(=O)NCC(=O)N[C@H](C(=O)N[C@@H](CO)C(=O)NCC(N)=O)[C@@H](C)O [Ce-2S],6.01
2,CC(C)C[C@H](NC(=O)[C@H](Cc1ccc(O)cc1)NC(=O)[C@@H]1CSCC(=O)N[C@H](Cc2ccc(O)cc2)C(=O)N[C@@H](CC(=O)O)C(=O)N[C@@H](Cc2ccc(O)cc2)C(=O)N2CCC[C@H]2C(=O)NCC(=O)N[C@@H](CC(=O)O)C(=O)N[C@@H](Cc2ccc(O)cc2)C(=O)N1)C(=O)N[C@@H](Cc1ccc(O)cc1)C(=O)NCC(=O)N[C@H](C(N)=O)[C@@H](C)O [Ce-2b],5.96
3,CC(C)C[C@H](NC(=O)[C@H](Cc1ccc(O)cc1)NC(=O)[C@@H]1CSCC(=O)N[C@H](Cc2ccc(O)cc2)C(=O)N[C@@H](CC(=O)O)C(=O)N[C@@H](Cc2ccc(O)cc2)C(=O)N2CCC[C@H]2C(=O)NCC(=O)N[C@@H](CC(=O)O)C(=O)N[C@@H](Cc2ccc(O)cc2)C(=O)N1)C(=O)N[C@@H](Cc1ccc(O)cc1)C(=O)NCC(N)=O [Ce-2c],5.70
4,CC(C)C[C@H](NC(=O)[C@H](Cc1ccc(O)cc1)NC(=O)[C@@H]1CSCC(=O)N[C@H](Cc2ccc(O)cc2)C(=O)N[C@@H](CC(=O)O)C(=O)N[C@@H](Cc2ccc(O)cc2)C(=O)N2CCC[C@H]2C(=O)NCC(=O)N[C@@H](CC(=O)O)C(=O)N[C@@H](Cc2ccc(O)cc2)C(=O)N1)C(N)=O [Ce-2e],5.32
5,CC(=O)N[C@H](Cc1ccc(O)cc1)C(=O)N[C@@H](CC(=O)O)C(=O)N[C@@H](Cc1ccc(O)cc1)C(=O)N1CCC[C@H]1C(=O)NCC(=O)N[C@@H](CC(=O)O)C(=O)N[C@@H](Cc1ccc(O)cc1)C(=O)N[C@@H](CO)C(=O)N[C@@H](Cc1ccc(O)cc1)C(=O)N[C@@H](CC(C)C)C(=O)N[C@@H](Cc1ccc(O)cc1)C(=O)NCC(=O)N[C@H](C(=O)N[C@@H](CS)C(=O)NCC(N)=O)[C@@H](C)O [Ce-L2],5.18 ^†

# Same assay, conditions: Table 2 rows marked *; PGM concentration 0.5 nM
row,SMILES,pIC50 D. immitis iPGM
1,CC(C)C[C@H](NC(=O)[C@H](Cc1ccc(O)cc1)NC(=O)[C@@H]1CSCC(=O)N[C@H](Cc2ccc(O)cc2)C(=O)N[C@@H](CC(=O)O)C(=O)N[C@@H](Cc2ccc(O)cc2)C(=O)N2CCC[C@H]2C(=O)NCC(=O)N[C@@H](CC(=O)O)C(=O)N[C@@H](Cc2ccc(O)cc2)C(=O)N1)C(=O)N[C@@H](Cc1ccc(O)cc1)C(=O)NCC(=O)N[C@H](C(=O)N[C@@H](CS)C(=O)NCC(N)=O)[C@@H](C)O [Ce-2],9.36
2,CC(C)C[C@H](NC(=O)[C@H](Cc1ccc(O)cc1)NC(=O)[C@@H]1CSCC(=O)N[C@H](Cc2ccc(O)cc2)C(=O)N[C@@H](CC(=O)O)C(=O)N[C@@H](Cc2ccc(O)cc2)C(=O)N2CCC[C@H]2C(=O)NCC(=O)N[C@@H](CC(=O)O)C(=O)N[C@@H](Cc2ccc(O)cc2)C(=O)N1)C(=O)N[C@@H](Cc1ccc(O)cc1)C(=O)NCC(=O)N[C@H](C(=O)N[C@@H](CS)C(N)=O)[C@@H](C)O [Ce-2a],9.91

# Biological target: O. volvulus iPGM (Onchocerca volvulus, UniProt I6LDA6)
# Assay: as above
# Assay type: biochemical
# Conditions: Table 2; PGM concentration as in Table 1 (20 nM); † estimated from incomplete curves
row,SMILES,pIC50 O. volvulus iPGM
1,CC(=O)N[C@H](Cc1ccc(O)cc1)C(=O)N[C@@H](CC(=O)O)C(=O)N[C@@H](Cc1ccc(O)cc1)C(=O)N1CCC[C@H]1C(=O)NCC(=O)N[C@@H](CC(=O)O)C(=O)N[C@@H](Cc1ccc(O)cc1)C(=O)N[C@@H](CO)C(=O)N[C@@H](Cc1ccc(O)cc1)C(=O)N[C@@H](CC(C)C)C(=O)N[C@@H](Cc1ccc(O)cc1)C(=O)NCC(=O)N[C@H](C(=O)N[C@@H](CS)C(=O)NCC(N)=O)[C@@H](C)O [Ce-L2],5.18 ^†
